# In PMC7509637 (Advanced Science, 2020):
# B1: FapC fibrils: FapC incubated in deionized water at 37 °C for 1 week, nonsonicated fibrils (protein)
# chain: GNEGGWHPPKPNPQSNNKGGATALVVDTQQNYNNKVSNFGTLNNASVSGSIKDASGNVGVNVAAGDNNQQANAAALASADASFVFGTATASTSVLQSGYGNTLNNYSNPNTASLSNSANNVSGNLGVNVAAGNFNQQKNDLAAAVSNGQYSTAGSAASQTSTGNTTVNSANYAYGGTYVSLKLNADGSYKGTSDQIGDVYLDTWEGQTHPGGSNTGHIDVDSQAQGAKDLNHDGGAFAFKEKGDVDLKGTVSGFIPAIVGFKTPVTNNASLSNSLQNVSGNVGVNIAAGGGNQQSNSLSIAAGCSSCPAGGESLGF
# Assays:
# Aβ fibrils = assay: AFM of fibrils, FiberApp statistical analysis
# Description: Aβ incubated in the presence or absence of FapCS, FapC monomers, FapC fibrils or bLgS were subjected to TEM imaging. After incubation for 12 h, a drop of sample was applied on a glow‐discharged carbon‐coated copper grid. After 1 min, the sample was blotted and then negatively stained with uranyl acetate (1%) for 30 s. The dried grid was then imaged with a Technei F20 TEM at 200 kV. For AFM, a drop of sample was placed on freshly cleaved mica surface and rinsed with water after 2 min and dried with pressurized air. The sample was scanned with an AFM (Nanoscope VIII Multimode Scanning Force Microscopes, Bruker), covered with an acoustic hood to minimize the vibrational noise. Images were acquired under the tapping mode with a silicon nitride cantilever (Bruker). AFM images were processed with Nanoscope Analysis 1.5 software to flatten the background and to calculate the statistical parameters.
# [1] = X-ray diffraction on oriented fibrils; details: Figure S9; for intersheet distance: equatorial reflection; for interstrand distance: meridional reflection
Molecule,pitch size of fibrils (Aβ fibrils; FiberApp) [nm],"fibril diameter (Aβ fibrils; from fibril heights, mean ± SD) [nm]",intersheet distance [1] [Å],interstrand distance [1] [Å]
amyloid beta [Aβ],43,5.1 ± 1.0,9.6,4.7
B1,,,9.6,4.7
